Measured values published in ChEMBL document CHEMBL4819148, “Anti-protozoal and anti-fungal evaluation of 3,5-disubstituted 1,2-dioxolanes” (Bioorg Med Chem Lett, 2021).

Experiments:
Aspergillus fumigatus = test: Antifungal activity against Aspergillus fumigatus ASFU76 assessed as reduction in fungal growth after
Leishmania donovani [1] = test: Antileishmanial activity against axenic amastigote form of Leishmania donovani LV9 assessed as reduction in parasite growth
Candida albicans = test: Antifungal activity against Candida albicans CAAL93 assessed as reduction in fungal growth
[2] = Selectivity index, ratio of CC50 for cytotoxicity against HUVEC cells to IC50 for antileishmanial activity against axenic amastigote form of Leishmania donovani LV9; conditions: human
Plasmodium falciparum = test: Antimalarial activity against Plasmodium falciparum 3D7 assessed as inhibition of parasite growth
[3] = Selectivity index, ratio of CC50 for cytotoxicity against HUVEC cells to IC50 for antiplasmodial activity against Plasmodium falciparum 3D7; conditions: human
Leishmania donovani [4] = test: Antileishmanial activity against intramacrophage form of Leishmania donovani LV9 assessed as reduction in parasite growth

CCCCCCC1CC(N=[N+]=[N-])OO1 (configuration not stated)
IC50 (Aspergillus fumigatus): > 100 µM
IC50 (Leishmania donovani [1]): 19.2 µM
IC50 (Candida albicans): > 100 µM
Ratio CC50/IC50 [2]: 0.64
IC50 (Plasmodium falciparum): 30 nM
Ratio CC50/IC50 [3]: 405
IC50 (Leishmania donovani [4]): 37.6 µM
